Results of unrelated studies side by side (data: NIAID ChemDB).

Shared fields: tests in culture; species: HIV-1; cell line: MT-2; read-out: EC50

Blank or dashed fields: not listed here.

SMILES | strain or isolate | changes | method | result
Cc1ccnc2c1NC(=O)c1cccnc1N2C1CC1 | IIIB | - | MTT | 0.171 µM
COc1ccc(S(=O)(=O)N(CC(C)C)C[C@@H](O)[C@H](Cc2cccc(-c3cccc(OC)c3)c2)NC(=O)O[C@H]2CCOC2)cc1 | LAI | - | MTT | 0.381 µM
O=C1N(Cc2cccc(C(=O)C(F)(F)F)c2)[C@H](Cc2ccccc2)[C@H](O)[C@@H](O)[C@@H](Cc2ccccc2)N1Cc1cccc(C(=O)C(F)(F)F)c1 | RF | - | - | <33 µM
Cc1cn([C@H]2C=C[C@@H](CO)O2)c(=O)[nH]c1=O | IIIB | - | MTT | 4.2 µM
CNc1cccc(CN2C(=O)N(Cc3cccc(NC)c3)[C@H](Cc3ccccc3)[C@H](O)[C@H]2CCc2ccccc2)c1 | RF | - | cytopathic effect / MTT | <0.328 µM
Nc1ccn([C@H]2CC[C@@H](CO)O2)c(=O)n1 | RT Δ.67 T69G K103N | 1 (Δ.67+T69G+K103N) | p24 | 0.097 µM
CO[C@H]1O[C@@H](n2ccc(=O)[nH]c2=O)C[C@@H]1N=[N+]=[N-] | LAI WT | - | p24 | >200 µM
CN(C)c1nc(N)nc2c1ncn2[C@H]1CC[C@@H](CO)O1 | NL4-3 | - | - | 16.56 µM
Cn1nc(NS(C)(=O)=O)c2c(Cl)ccc(-n3c([C@H](Cc4cc(F)cc(F)c4)NC(=O)Cn4nc(C(F)F)c5c4C(F)(F)[C@@H]4C[C@H]54)nc(C#CC(C)(C)S(C)(=O)=O)cc3=O)c21 | NL4-3 | - | luciferase | 0.000069 µM
Nc1nc(Cl)c2ncn([C@H]3C=C[C@@H](CO)C3)c2n1 | - | - | cytopathic effect / XTT | 0.4 µg/mL
O=C1N(Cc2cccc(-c3cnc[nH]3)c2)[C@H](Cc2ccccc2)[C@H](O)[C@@H](O)[C@@H](Cc2ccccc2)N1Cc1cccc(-c2cnc[nH]2)c1 | RF | - | - | <0.084 µM
Nc1ccc(C[C@@H]2[C@H](O)[C@@H](O)[C@@H](Cc3ccc(N)cc3)N(Cc3ccccc3)C(=O)N2Cc2ccccc2)cc1 | RF | - | hybridisation | <1.3 µM
Nc1nc(NC2CC2)c2ncn([C@H]3C=C[C@@H](CO)O3)c2n1 | NL4-3 | - | - | 11.06 µM
Nc1ncnc2c1ncn2[C@H]1CC[C@@H](CO)C1 | - | - | cytopathic effect / XTT | 24.3 µg/mL
COc1ccc(S(=O)(=O)N(CC(C)C)C[C@@H](O)[C@H](Cc2ccc(F)cc2)NC(=O)O[C@H]2CCO[C@H]3OCC[C@H]32)cc1 | LAI | - | MTT | 0.0009 µM
Cc1cn([C@H]2C[C@H](N=[N+]=[N-])[C@@H](CO)O2)c(=O)[nH]c1=O | LAI | RT-D67N K70R T215Y K219Q L74V | p24 | 0.019 µM
CS(=O)(=O)c1ccc(C[C@@H]2[C@H](O)[C@@H](O)[C@@H](Cc3ccc(S(C)(=O)=O)cc3)N(Cc3ccccc3)C(=O)N2Cc2ccccc2)cc1 | RF | - | hybridisation | <0.47 µM
O=C(O)P(=O)(O)O | LAI viral clone (RT-W88S) | RT-W88S | cytopathic effect / MTT | 120 µM
COc1ccc(C[C@H](NC(=O)O[C@H]2CCO[C@H]3OCC[C@H]32)[C@H](O)CN(CC(C)C)S(=O)(=O)c2ccc(N)cc2)cc1 | LAI | - | - | <0.01 µM
Cc1cn([C@H]2C=C[C@@H](CO)O2)c(=O)[nH]c1=O | Clinical isolate | M184V | recombinant virus assay | 0.384 µM
O=C1c2ccccc2C2(c3ccccc3)SCCN12 | IIIB | - | MTT | 0.68 µM
Nc1nc(N)c2ncn([C@H]3CC[C@@H](CO)O3)c2n1 | NL4-3 | - | - | 19.12 µM
O=C1N(Cc2ccccc2)[C@H](Cc2ccccc2)[C@H](O)[C@@H](O)[C@@H](Cc2ccccc2)N1Cc1ccccc1 | RF | - | hybridisation | <0.79 µM
Nc1cccc(CN2C(=O)N(Cc3cccc(N)c3)[C@H](Cc3ccccc3)[C@H](O)[C@@H](O)[C@H]2Cc2ccccc2)c1 | RF | - | - | <0.13 µM
Nc1ccn([C@H]2CC[C@@H](CO)O2)c(=O)n1 | IIIB | - | cytopathic effect / MTT | 0.6 µM
CNc1nc(N)nc2c1ncn2[C@H]1CC[C@@H](CO)O1 | NL4-3 | - | - | >20 µM
Nc1nc(=O)n([C@@H]2CS[C@H](CO)O2)cc1F | Site-directed mutant | RT-K65R Y115F M184V | cytopathic effect / XTT | >161 µM
Cc1cn([C@H]2C=C[C@@H](CO)O2)c(=O)[nH]c1=O | NL4-3 WT | - | p24 | 0.053 µM
Nc1nc2c(ncn2[C@H]2CO[C@@H](CO)O2)c(=O)[nH]1 | LAI | RT-D67N K70R T215Y K219Q | p24 | 0.58 µM
Cc1nc(C)c([C@H](OC(C)(C)C)C(=O)O)c(N2CCC(C3CCCCC3)CC2)c1-c1ccc(C(=O)NCc2ccccc2)cc1 | NL4-3 | - | luciferase | <0.1 µM
C[C@H](Cn1cnc2c(N)ncnc21)OCP(=O)(O)O | Site-directed mutant | RT-K65R | cytopathic effect / XTT | 11.88 µM
O=C1N(Cc2ccc(CO)cc2)[C@H](Cc2ccccc2)[C@H](O)[C@@H](O)[C@@H](Cc2ccccc2)N1Cc1ccc(CO)cc1 | RF | - | virus yield | <0.15 µM
COc1ccc(C[C@@H]2[C@H](O)[C@@H](O)[C@@H](Cc3ccc(OC)cc3)N(Cc3ccccc3)C(=O)N2Cc2ccccc2)cc1 | RF | - | hybridisation | <0.6 µM
Cc1nc(C)c([C@H](OC(C)(C)C)C(=O)O)c(N2CC[C@H]3CCCC[C@H]3C2)c1-c1ccc(OCCc2ccc(F)cc2)cc1 | NL4-3 | - | luciferase | <0.1 µM
Cc1cn([C@H]2CC[C@H](CO)O2)c(=O)[nH]c1=O | IIIB | - | cytopathic effect / MTT | >100 µM
Nc1nc2c(ncn2[C@H]2C=C[C@@H](CO)C2)c(=O)[nH]1 | - | - | cytopathic effect / XTT | 0.19 µg/mL
O=C1N(Cc2cccnc2)[C@H](Cc2ccccc2)[C@H](O)[C@@H](O)[C@@H](Cc2ccccc2)N1Cc1cccc(-c2ccn[nH]2)c1 | RF | - | - | <0.094 µM
CC(C)CN(C[C@@H](O)[C@H](Cc1ccccc1)NC(=O)O[C@H]1CCOC1)S(=O)(=O)c1ccc(N)cc1 | LAI | - | MTT | 0.028 µM
O=C1N(CC2CC2)[C@H](Cc2ccccc2)[C@H](O)[C@@H](O)[C@@H](Cc2ccccc2)N1CC1CC1 | RF | - | - | <1.84 µM
Nc1nc(=O)n([C@@H]2CS[C@H](CO)O2)cc1F | Clinical isolate | T69ins/K70R/M184V/K219Q | recombinant virus assay | >13.3 µM
CC(=O)N[C@H](C(=O)N[C@@H](Cc1ccccc1)[C@@H](O)CN(CC1CCCCC1)NC(=O)[C@@H](NC(C)=O)C(C)C)C(C)C | LAV | - | RT activity | <1 µM
N/C(=N/O)c1cccc(CN2C(=O)N(Cc3cccc(/C(N)=N\O)c3)[C@H](Cc3ccc(F)cc3)[C@@H](O)[C@H]2CCc2ccc(F)cc2)c1 | RF | - | cytopathic effect / MTT | <0.049 µM
CC(C)[C@H](NC(=O)OCc1ccccc1)C(=O)N[C@@H](Cc1ccccc1)[C@@H](O)CN(Cc1ccccc1)NC(=O)[C@@H](NC(=O)OCc1ccccc1)C(C)C | LAV | - | RT activity | <0.1 µM
CC(C)(C)NC(=O)[C@@H]1C[C@@H]2CCCC[C@@H]2CN1C[C@@H](O)[C@H](Cc1ccccc1)NC(=O)[C@H](CC(N)=O)NC(=O)c1ccc2ccccc2n1 | IIIB | - | RT activity | 0.013 µM
O=C1N(Cc2ccccc2)[C@H](Cc2ccccc2O)[C@H](O)[C@@H](O)[C@@H](Cc2ccccc2O)N1Cc1ccccc1 | RF | - | hybridisation | <6.5 µM
Cc1[nH]nc2ccc(CN3C(=O)N(Cc4ccc5n[nH]c(C)c5c4)[C@H](Cc4ccccc4)[C@H](O)[C@H]3CCc3ccccc3)cc12 | RF | - | cytopathic effect / MTT | <0.018 µM
O=c1[nH]cnc2c1ncn2[C@H]1CC[C@@H](CO)O1 | IIIB | - | cytopathic effect / MTT | 12 µM
Cc1cccc(C)c1OCC(=O)N[C@@H](Cc1ccccc1)[C@@H](O)C[C@H](Cc1ccccc1)NC(=O)[C@H](C(C)C)N1CCCNC1=O | LAI | - | MTT | 0.027 µM
Cc1cn([C@H]2C[C@H](N=[N+]=[N-])[C@@H](CO)O2)c(=O)[nH]c1=O | RF | - | - | 0.005–0.15 µg/mL
CC(C)=CCN1Cc2cccc3[nH]c(=S)n(c23)C[C@@H]1C | LAI | - | cytopathic effect / MTT | 0.06 µM
O=c1[nH]cnc2c1ncn2[C@H]1CC[C@@H](CO)O1 | LAI | RT-K65R | p24 | 14.2 µM

Again, the opening 5 rows:

| SMILES | strain or isolate | changes | method | result |
|---|---|---|---|---|
| Cc1ccnc2c1NC(=O)c1cccnc1N2C1CC1 | IIIB | - | MTT | 0.171 µM |
| COc1ccc(S(=O)(=O)N(CC(C)C)C[C@@H](O)[C@H](Cc2cccc(-c3cccc(OC)c3)c2)NC(=O)O[C@H]2CCOC2)cc1 | LAI | - | MTT | 0.381 µM |
| O=C1N(Cc2cccc(C(=O)C(F)(F)F)c2)[C@H](Cc2ccccc2)[C@H](O)[C@@H](O)[C@@H](Cc2ccccc2)N1Cc1cccc(C(=O)C(F)(F)F)c1 | RF | - | - | <33 µM |
| Cc1cn([C@H]2C=C[C@@H](CO)O2)c(=O)[nH]c1=O | IIIB | - | MTT | 4.2 µM |
| CNc1cccc(CN2C(=O)N(Cc3cccc(NC)c3)[C@H](Cc3ccccc3)[C@H](O)[C@H]2CCc2ccccc2)c1 | RF | - | cytopathic effect / MTT | <0.328 µM |

Neighbouring rows are from separate reports. a–b is a range or a potency band. ECn is the concentration giving n% inhibition of infection, replication or growth.